This series can be described thus: staining test on pigskin. As to conditions: for Staining: summary Table 14; for Staining Results: about 10 μL on pigskin, about 24 hours at room temperature. Further details: species or system pig; key to Staining: +: tends to stain certain surfaces; −: do not stain.

SMILES strings stand for the structures.

Consider `O=Cc1ccc(C=O)cc1` [TPA, terephthalaldehyde], for which the Staining result is recorded as “−”.
Turning to `O=Cc1ccccc1C=O` [OPA, phthalaldehyde], the Staining entry is “+”. The “Staining Results” value (0.14% solution) is “Dark Staining”.
Regarding `O=Cc1cccc(C=O)c1` [IPA, isophthalaldehyde], the Staining result was “−”. In addition, where the note is “0.20% solution”, the “Staining Results” value is given as “Non-Staining”.

For the origin of these results see US20050171216A1, “Germicidal compositions containing phthalaldehyde mixtures and methods of using such compositions for disinfection or sterilization” (priority 2004, published 2005).
